{
  "source": "patent US20080227128A1",
  "about": "“Resonance Energy Transfer System and Method” (Mount Sinai School of Medicine of New York University, priority 2004, published 2008)",
  "system": "L1-BRET construct",
  "test": "BRET assay, L1-BRET construct transfected in HEK-293 cells",
  "format": "cell-based, Human",
  "details": "n=5",
  "data": [
    {"smiles": "O=[As]c1ccccc1", "note": "(stereo not shown)", "values": [
      {"measurement": "effect on the BRET ratio of the L1-BRET construct", "result": "significant decrease in the BRET ratio"}
    ]}
  ]
}
